{"source": "patent US20230348447A1", "about": "“OXAZOLIDINONE COMPOUNDS, LIPOSOME COMPOSITIONS COMPRISING OXAZOLIDINONE COMPOUNDS AND METHOD OF USE THEREOF” (priority 2020, published 2023)", "test_system": "M. Tuberculosis Erdman or H37Rv vs VERO or HepG2 cells", "assay": "Selectivity Index (mammalian cell IC50 / bacterial MIC)", "design": "species or system Mycobacterium tuberculosis", "data": [{"compound": "Cl.Cn1nnc(-c2ccc(-c3ccc(N4C[C@H](CNC(=O)CCCN)OC4=O)cc3F)cn2)n1", "note": "[AKG-18]", "values": [{"measurement": "Selectivity Index (SI) Erd/HepG2", "result": 4.8}, {"measurement": "Selectivity Index (SI) Erd/VERO", "result": ">125"}]}, {"compound": "Cl.Cn1nnc(-c2ccc(-c3ccc(N4C[C@H](CNC(=O)CCN)OC4=O)cc3F)cn2)n1", "note": "[AKG-17]", "values": [{"measurement": "Selectivity Index (SI) Erd/HepG2", "result": 18.7}, {"measurement": "Selectivity Index (SI) Erd/VERO", "result": ">125"}]}]}
